A mixed list of measured activities; the numbers were collected in NIAID ChemDB.

Shared fields: tests on isolated targets

ICn is the concentration giving n% inhibition. Neighbouring rows are from separate reports. Percent inhibition refers to the dose given; in toxicity tests it is the harm to the cells. Two numbers with a dash give a range or band. Blank or dashed fields: not listed here.

SMILES | target | tested at | measure | read by | species | result
O=C(Nc1ccc2cn[nH]c2c1)c1cc(NCCc2ccccn2)c(F)cc1F | Reverse transcriptase | 0.01 µg/mL | inhibition |  | Hepatitis B virus | 30%
CC[C@H](C)[C@H](NC(=O)[C@H](CC(C)C)NC(=O)[C@@H](CCC(=O)O)NC(=O)[C@H](CCC(=O)O)NC(=O)CCC(=O)O)C(=O)N[C@@H](CC1CCCCC1)C(=O)NC1(C(=O)C(F)(F)C(F)(F)F)CC1 | HCV NS3 protease |  | Ki |  | Hepatitis C virus | 1.8 µM
O=c1oc2c(O)c(O)cc3c(=O)oc4c(O)c(O)cc1c4c23 | Nonstructural protein 3/4A |  | IC90 | fluorescence | Hepatitis C virus | <10 µM
CC[C@H](C)[C@H](NC(=O)[C@H](CC(C)C)NC(=O)[C@@H](CCC(=O)O)NC(=O)CCC(=O)O)C(=O)N[C@@H](CC1CCCCC1)C(=O)N[C@@H](Cc1ccccc1)C(=O)O | HCV NS3 protease |  | Ki |  | Hepatitis C virus | 30 µM
CCCC(NC(=O)[C@@H]1CCCN1C(=O)[C@@H](NC(=O)[C@@H](NC(=O)[C@@H](CCC(=O)O)NC(=O)[C@H](CC(=O)O)NC(C)=O)[C@@H](C)CC)C(C)C)C(=O)C(F)(F)F | NS3 protease/NS4A cofactor |  | IC50 |  | Hepatitis C virus | 23.5 µM
O=C(Nc1ccc2[nH]ncc2c1)c1cc(NCCN2CCOCC2)c(F)cc1F | Reverse transcriptase | 1 µg/mL | inhibition |  | Hepatitis B virus | 79%
CCCC(NC(=O)[C@@H]1C2CCCC2CN1C(=O)[C@@H](NC(=O)[C@@H](NC(=O)c1cnccn1)C1CCCCC1)C(C)(C)C)C(=O)C(=O)N[C@@H](C)CC | Nonstructural protein 3 protease |  | Ki |  | Hepatitis C virus | 0.084 µM
CCC[C@H](NC(=O)[C@H](CC1CCCCC1)NC(=O)[C@@H](NC(=O)[C@H](CC(C)C)NC(=O)[C@@H](CCC(=O)O)NC(=O)CCC(=O)O)[C@@H](C)CC)C(=O)NS(=O)(=O)c1ccccc1 | HCV NS3 protease |  | Ki |  | Hepatitis C virus | 0.21 µM
CCN(CCO)c1cc(C(=O)Nc2ccc3cn[nH]c3c2)c(F)cc1F | Reverse transcriptase |  | IC50 |  | Hepatitis B virus | 0.01–0.1 µg/mL
CC[C@H](NC(=O)[C@H](CC1CCCCC1)NC(=O)[C@@H](NC(=O)[C@H](CC(C)C)NC(=O)[C@@H](CCC(=O)O)NC(=O)[C@H](CC(=O)O)NC(C)=O)[C@H](C)CC)C(=O)/C=C/c1nccs1 | NS3 protease |  | Ki |  | Hepatitis C virus | 0.32 µM
O=C(Nc1ccc2[nH]ncc2c1)c1cc(NCCO)c(F)cc1F | Reverse transcriptase | 0.1 µg/mL | inhibition |  | Hepatitis B virus | 52%
FC(F)(F)Oc1cccc(Oc2ccc(-c3cnc4c(-c5nn[nH]n5)cnn4c3C3CCCCC3)cc2)c1 | RNA-dependent RNA polymerase |  | IC50 |  | Hepatitis C virus | 1–10 µM
O=C(Nc1ccc2cn[nH]c2c1)c1cc(NCCCn2ccnc2)c(F)cc1F | Reverse transcriptase | 0.1 µg/mL | inhibition |  | Hepatitis B virus | 45%
O=C(O)CN1C(=O)/C(=C/c2ccc(-c3ccccc3)cc2)SC1=S | Plasmin |  | IC50 |  | Hepatitis C virus | 7 µM
CC[C@@H](C)[C@H](NC(=O)[C@H](CC(C)C)NC(=O)[C@@H](CCC(=O)O)NC(=O)[C@H](CC(=O)O)NOC(=O)CCC(=O)O)C(=O)N[C@@H](CC1CCCCC1)C(=O)N[C@@H](CS)C(=O)O | NS3 protease |  | Ki |  | Hepatitis C virus | 0.928 µM
O=C(Nc1ccc2cn[nH]c2c1)c1cc(NCCO)c(F)cc1F | Reverse transcriptase |  | IC50 |  | Hepatitis B virus | 0.1–1 µg/mL
COC(=O)c1cc2ncc(-c3ccc(Oc4ccccc4)cc3)c(-c3ccccc3)n2n1 | RNA-dependent RNA polymerase |  | IC50 |  | Hepatitis C virus | >10 µM
CCC[C@H](NC(=O)[C@H](CC1CCCCC1)NC(=O)[C@@H](NC(=O)[C@H](CC(C)C)NC(=O)[C@@H](CCC(=O)O)NC(=O)CCC(=O)O)[C@@H](C)CC)C(=O)O | HCV NS3 protease |  | Ki |  | Hepatitis C virus | 1.9 µM
NS(=O)(=O)c1ccc(CCNc2cc(C(=O)Nc3ccc4cn[nH]c4c3)c(F)cc2F)cc1 | Reverse transcriptase |  | IC50 |  | Hepatitis B virus | 0.01–0.1 µg/mL
CC[C@@H](C)[C@H](NC(=O)[C@H](CC(C)C)NC(=O)[C@@H](CCC(=O)O)NC(=O)[C@H](CC(=O)O)NOC(=O)CCC(=O)O)C(=O)N[C@@H](CC1CCCCC1)C(=O)NC1(C(=O)NS(=O)(=O)c2ccccc2)CC1 | NS3 protease |  | Ki |  | Hepatitis C virus | 0.0038 µM
O=C(Nc1ccc2[nH]ncc2c1)c1cc(NCCN2CCCC2)c(F)cc1F | Reverse transcriptase | 0.1 µg/mL | inhibition |  | Hepatitis B virus | 54%
CCS(=O)(=O)Nc1cnn2c(C3CCCCC3)c(-c3ccc(OCc4ccccc4)cc3)cnc12 | RNA-dependent RNA polymerase |  | IC50 |  | Hepatitis C virus | >10 µM
CC[C@H](C)[C@H](NC(=O)[C@H](CC(C)C)NC(=O)[C@@H](CCC(=O)O)NC(=O)CCC(=O)O)C(=O)N[C@@H](CC1CCCCC1)C(=O)NC1(C(=O)NS(=O)(=O)c2ccccc2)CC1 | HCV NS3 protease |  | Ki |  | Hepatitis C virus | 0.56 µM
CCCC[C@H](NC(=O)[C@@H]1[C@@H]2[C@H](CN1C(=O)[C@@H](NC(=O)NC1(CS(=O)(=O)C(C)(C)C)CCCCC1)C(C)(C)C)C2(C)C)C(=O)C(=O)NC1CC1 | NS3 |  | Ki | substrate cleavage | Hepatitis C virus | 0.006 µM
O=C(NCc1ccc(N2CCNC2=O)cc1)Nc1nc2c(s1)-c1c(cnn1-c1ccccc1C(F)(F)F)C2 | PI4KIIIalpha |  | IC50 | PCR | Hepatitis C virus | 0.027 µM
O=C(O)c1cc2nc(-c3ccccc3)cc(-c3cccc(F)c3)n2n1 | RNA-dependent RNA polymerase |  | IC50 |  | Hepatitis C virus | >10 µM
Nc1nc(=O)c2ncn(CCOCP(=O)(O)O)c2c(=O)[nH]1 | Nonstructural protein 3 NTPase/helicase |  | IC50 | helicase activity | Hepatitis C virus | 200 µM
O=C(O)c1cc2nc(-c3ccc(C(F)(F)F)cc3)cc(-c3cc(Cl)cc(Cl)c3)n2n1 | RNA-dependent RNA polymerase |  | IC50 |  | Hepatitis C virus | >10 µM
C/C=C/C(=O)C(=O)[C@H](CC)NC(=O)[C@H](CC1CCCCC1)NC(=O)[C@@H](NC(=O)[C@H](CC(C)C)NC(=O)[C@@H](CCC(=O)O)NC(=O)[C@H](CC(=O)O)NC(C)=O)[C@H](C)CC | NS3 protease |  | Ki |  | Hepatitis C virus | 17 µM

2 of the rows above, restated:

SMILES,target,tested at,measure,read by,species,result
Nc1nc(=O)c2ncn(CCOCP(=O)(O)O)c2c(=O)[nH]1,Nonstructural protein 3 NTPase/helicase,,IC50,helicase activity,Hepatitis C virus,200 µM
FC(F)(F)Oc1cccc(Oc2ccc(-c3cnc4c(-c5nn[nH]n5)cnn4c3C3CCCCC3)cc2)c1,RNA-dependent RNA polymerase,,IC50,,Hepatitis C virus,1–10 µM